Screening data, single-dose tests

The filed quantity is “Percent Effect” (%).
The controls that fix the scale are not given in the record; negative values are as filed.
This is part of a subset picked to be rich in strong results.

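Phenotypic screen: M. tuberculosis growth, glucose 7H9 medium, 3 days; the read-out is not stated. Tested at 500 µM. Higher reads as more growth inhibition (inferred: compounds with an IC50 in retests scored well above the rest). About 18,000 compounds were tested under these conditions; 7.9% (about 1,400) showed 50% or more at least once.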

* CN(C)C(=O)NCCNc1nc(-c2ccccc2)ns1 : -6.601%
* Cc1ccc(CNCCOc2ccccn2)o1 : 50.76%
* O[C@H]1CC[C@@H](c2nc(C3CCOC3)n[nH]2)CC1 (some centres undefined) : 3.942%
* O=C(CN1CCOCC1)NCc1ccc2sccc2c1 : 27.9%
* NCCC1COc2ccccc2O1 (centres undefined) : -12.25%
* CN(C)C(CN)C1CCCCC1 (centres undefined) : 67.06%
* COCCN1CCN(CCCN2CCCC2=O)CC1 : -9.08%
* CCN(Cc1ccccc1)C(=O)C1CCNCC1 : 37.87%
* CCc1ccc(CN(C)CCC(=O)NC2CC2)nc1 : 6.638%
* CN(C)CCNC(=O)c1ccc(F)cc1 : 7.753%
* Cc1ncc(Cn2cc(F)ccc2=O)s1 : 52.86%
* N[C@H]1c2ccccc2C[C@H]1F : 6.092%
* COc1cc(CNc2ccc(CO)cn2)cc(OC)c1 : 38.87%
* NCc1cc(C(N)=O)co1 : -3.84%
* Cc1cccc(C)c1NC(=O)CCCS(C)(=O)=O : 7.251%
* Cn1c(CO)cnc1S(=O)(=O)Cc1ccc(F)cc1 : -0.8459%
* CN(C)CCOc1cc(N)ccn1 : 7.661%
* Cc1cc(S(=O)(=O)NC(CN)C2CC2)c(F)cc1F (centres undefined) : 55.27%
* CS(=O)(=O)CC1(CNCc2ccncc2)CC1 : 17.65%
* CNC(=O)c1cccc(NS(=O)(=O)c2ccccc2)c1 : 33.3%
* CC(O)CNC(=O)c1ccc(-c2ccccc2F)o1 (centres undefined) : 47.33%
* CCn1cc(CN2CC(C)OCC2(C)C)cn1 (centres undefined) : -7.988%
* COCCC(C)(C)CN : 0.3865%
* CCOc1ccc(Cl)cc1CNc1nnnn1C : 34.25%
* CO[C@@H]1CCOC[C@H]1NC(=O)c1cccc(N(C)C)c1 : 9.856%
* Cc1nnc(SCC=Cc2ccccc2)n1CC(N)=O : 5.925%
* CC(C)CNc1nc(N)c2cn[nH]c2n1 : 74.7%
* CCNCC(=O)NC1CCS(=O)(=O)C1 (centres undefined) : 6.137%
* COc1nc(N)cc(=O)[nH]1 : -16.9%
* CSc1cccc(N(C)C(=O)C(N)c2ccccc2)c1 (centres undefined) : 66.3%
* Cc1nc(NCCc2cc[nH]n2)cc(C2CC(O)C2)n1 (centres undefined) : -8.728%
* Cc1cc(Cn2c(=O)[nH]c3ccccc3c2=O)no1 : -22.05%
* Cc1cccc(C(=O)NCC2(O)CCC2)c1O : 21%
* COc1c(C)cccc1CN : 6.58%
* CC(=O)c1cccc(OCC(=O)Nc2cc(C)on2)c1 : -10.33%
* O=C1Nc2ccccc2C12CCNC2 (centres undefined) : -5.134%
* CN(Cc1ccco1)c1ncnc2c1cnn2CCO : 37.25%
* CC(C)(C)C(=O)Nc1nccs1 : 16.73%
* NC1CCN(Cc2ccc(F)c(F)c2)CC1 : -4.06%
* CCn1cc(NC(=O)NC2CCN(C3CC3)CC2)cn1 : 3.284%
* CCOc1cc(CN2CCC(N)CC2)ccc1O : -1.77%
* CCc1nc(CNC(=O)Cc2nonc2C)cs1 : 20.53%

The last 4 entries again:

* NC1CCN(Cc2ccc(F)c(F)c2)CC1 | -4.06%
* CCn1cc(NC(=O)NC2CCN(C3CC3)CC2)cn1 | 3.284%
* CCOc1cc(CN2CCC(N)CC2)ccc1O | -1.77%
* CCc1nc(CNC(=O)Cc2nonc2C)cs1 | 20.53%

Source: ChEMBL document CHEMBL3988442, “University of Dundee, Small-Polar-MMV Screening Library” (2021).